Results of unrelated studies side by side (data: NIAID ChemDB).

All rows: growth or infection tests; agent: Mycobacterium tuberculosis

MIC bound comes from a single tested concentration. Percent inhibition refers to the dose given; in toxicity tests it is the harm to the cells. Rows are shuffled and stem from different studies. ECn: concentration that inhibits the pathogen or its effect by n%. MIC50, MIC90 and the like: level of inhibition, or share of isolates inhibited. An empty or dashed field is not shown. a–b is a range or a potency band.

smiles,strain,conditions,endpoint,read by,cell line,mutations,dose,result
CCOc1cc(C2SCC(=O)N2NC(=O)c2ccc(NC(=O)c3ccc(OC)cc3)cc2)ccc1O,H37Rv,-,MIC,-,-,-,-,>6.25 µg/mL
C=CCN1[C@@H](c2ccccc2)CC2(C[C@H]1c1ccccc1)N=c1c(c3c4c5c(C)c(O)c3c(O)c1=NC(=O)/C(C)=C\C=C\[C@H](C)[C@H](O)[C@@H](C)[C@H](O)[C@H](C)[C@H](OC(C)=O)[C@H](C)[C@@H](OC)/C=C/O[C@@](C)(O5)C4=O)N2,ATCC 35837 (ethambutol-resistant),-,MIC,-,-,-,-,0.02 µg/mL
Cc1ccn2c(C(=O)NCc3ccc(N(C)C)cc3)c(C)nc2c1,H37Rv,-,MIC90,resazurin,-,-,-,<2 µM
CC(=O)C1=C(O)c2c(C)cc(C)nc2S(=O)(=O)N1CC(=O)c1ccccc1,H37Rv,-,inhibition,-,-,-,12.5 µg/mL,10%
CCCCc1ccc2nccc(N/N=C/c3ccc(OC)c4ccccc34)c2c1,H37Rv,-,inhibition,-,VERO,-,12.5 µg/mL,100%
Nc1c(C(=O)Nc2ccccc2)[n+]([O-])c2ccccc2[n+]1[O-],H37Rv,-,MIC bound,BACTEC,-,-,-,≤12.5 µg/mL
Cc1cccc(C(N)=Nc2nc(-c3ccccn3)cc3ccccc23)c1,J-3125,-,MIC,-,-,-,-,0.25 µg/mL
Cc1ccc(S(=O)(=O)Nc2nnc(-c3coc4ccc(C)cc4c3=O)s2)cc1,H37Rv,-,inhibition,resazurin,-,-,6.25 µg/mL,-16%
CC(=O)Nc1ccc(/C=N/NC(N)=S)cc1F,H37Rv,-,MIC90,resazurin,-,Ethambutol-resistant,-,<0.2 µg/mL
COC(=O)c1cc(=O)n(-c2ccc3nn(C)nc3c2)cc1C(=O)OC,H37Rv,-,MIC bound,resazurin,-,-,-,>6.25 µg/mL
Nc1ccc(C(=O)O)c(O)c1,7800,-,inhibition,-,-,-,0.38 µM,33%
COc1ccc(/C=N/Nc2cc(C)nc3cc(Cl)ccc23)c2ccccc12,H37Rv,-,MIC,-,VERO,-,-,0.78 µg/mL
Cc1cc(C)c2c(n1)S(=O)(=O)N(CC(=O)c1ccccc1)C2=O,H37Rv,-,MIC,-,-,-,-,>12.5 µg/mL
C[C@H](N)C(=O)N[C@H]1[C@H](O)[C@H](n2cnc3c(N)ncnc32)O[C@@H]1CO,H37Rv,-,inhibition,BACTEC,-,-,12.5 µg/mL,-4%
COc1ccc(C(=O)Nc2ccc(C(=O)NN3C(=O)CSC3c3ccc(Br)cc3)cc2)cc1,H37Rv,-,inhibition,-,-,-,6.25 µg/mL,11%
CCOC(=O)Cn1sc2nc(C)cc(C)c2c1=O,H37Rv,-,inhibition,-,-,-,12.5 µg/mL,98%
CO[C@H]1/C=C/O[C@@]2(C)Oc3c(C)c(O)c4c(O)c(c5c(c4c3C2=O)NC2(C[C@@H](c3ccc(F)cc3)N[C@@H](c3ccc(F)cc3)C2)N=5)=NC(=O)/C(C)=C\C=C\[C@H](C)[C@H](O)[C@@H](C)[C@H](O)[C@H](C)[C@H](OC(C)=O)[C@@H]1C,ATCC 35820 (streptomycin-resistant),-,MIC,-,-,-,-,0.02 µg/mL
C=C1C(=O)C23C(CCC1[C@@H]2O)C12CO[C@]3(O)[C@@H](O)[C@@H]1C(C)(C)CC[C@@H]2O,H37Rv,-,MIC bound,BACTEC,-,-,-,>12.5 µg/mL
CCc1nc2ccc(Cl)cn2c1C(=O)NCc1ccc(N2CCS(=O)(=O)CC2)cc1,H37Rv,-,MIC90,resazurin,-,-,-,2–10 µM
CO[C@H]1/C=C/O[C@@]2(C)Oc3c(C)c(O)c4c(=O)c(c5oc6cc(N7CCNCC7)cc(=O)c6nc5c4c3=C2O)NC(=O)/C(C)=C\C=C\[C@H](C)[C@H](O)[C@@H](C)[C@@H](O)[C@@H](C)[C@H](OC(C)=O)[C@@H]1C,H37Rv,-,MIC,-,-,-,-,0.6 µg/mL
Cc1c(N2C[C@@H](N)C3(CC3)C2)c(F)c(N)c2c(=O)c(C(=O)O)cn(C3CC3)c12,18 strains (levofloxacin-resistant),-,MIC90,-,-,-,-,50 µg/mL
C[C@H]1COc2c(N3CCC(O)(c4ccc(Cl)cc4)CC3)c(F)c([N+](=O)[O-])c3c(=O)c(C(=O)O)cn1c23,MDR-TB,-,MIC99,agar,-,-,-,3.01 µM
CO[C@H]1/C=C/O[C@@]2(C)Oc3c(C)c(O)c4c(=O)c(c5oc6cc(N7CCOCC7)cc(=O)c6nc5c4c3=C2O)NC(=O)/C(C)=C\C=C\[C@H](C)[C@H](O)[C@@H](C)[C@@H](O)[C@@H](C)[C@H](OC(C)=O)[C@@H]1C,H37Rv,-,MIC,-,-,-,-,0.008 µg/mL
NC(=O)c1cnccn1,TB206,7 d,inhibition,-,-,-,800 µg/mL,84.4%
NC(=O)c1cnccn1,Isolate 97-854,-,MIC,-,-,-,-,100 µg/mL
O=C(Nc1ccc(Cl)c(C(F)(F)F)c1)C(=O)c1c(O)c2ccccc2oc1=O,H37Rv,-,MIC bound,BACTEC,-,-,-,>12.5 µg/mL
CCc1nc2ccc(Cl)cn2c1C(=O)NCc1ccc(N2CCCN(c3ccc(S(F)(F)(F)(F)F)cc3)CC2)cc1,H37Rv,-,MIC90,resazurin,-,-,-,<2 µM
CC1(C)[C@H](C(=O)O)N2C(=O)C[C@H]2S1(=O)=O,Isolate 3,-,MIC,-,-,-,-,>16 µg/mL
C#CCN1C(=O)c2c(C)cc(C)nc2S1(=O)=O,H37Rv,-,EC50,-,-,-,-,>12.5 µg/mL
NC1=C([N+](=O)[O-])NC2OC[C@@H](OCc3ccc(OC(F)(F)F)cc3)CN12,wtH37Rv,-,MIC,broth dilution,-,-,-,>100 µM
OC(CCN1CC2CCC(CC2)C1)(Cc1ccccc1)c1cccs1,H37Rv,-,MIC bound,-,-,-,-,>6.25 µg/mL
CC1COc2c(N3CCN(C(=O)C4COc5ccccc5O4)CC3)c(F)c([N+](=O)[O-])c3c(=O)c(C(=O)O)cn1c23,MDR-TB,-,MIC99,agar,-,-,-,1.41 µM
COc1ncccc1Nc1cc2nc3ccccc3n(-c3ccc(OC(F)(F)F)cc3)c-2cc1=NC1CCC(OC)CC1,H37Rv,-,MIC90,fluorescence,-,-,-,0.06 µg/mL
CO[C@H]1/C=C/O[C@@]2(C)Oc3c(C)c(O)c4c(=O)c(c5oc6cc(N7CCN(CC(C)C)CC7)cc(=O)c6nc5c4c3=C2O)NC(=O)/C(C)=C\C=C\[C@H](C)[C@H](O)[C@@H](C)[C@@H](O)[C@@H](C)[C@H](OC(C)=O)[C@@H]1C,TN715,-,MIC,-,-,-,-,16 µg/mL
CCCCCCc1cc2c(O)c(C(c3ccccc3)c3c(O)c4cc(CCCCCC)c(O)cc4oc3=O)c(=O)oc2cc1O,H37Rv,-,MIC bound,BACTEC,-,-,-,>12.5 µg/mL
Cc1cn2c(C(=O)NCc3ccc(N4CCC5(CC4)OC[C@@H](C)O5)c(F)c3)c(C)nc2s1,H37Rv,-,MIC90,resazurin,-,-,-,<2 µM
C=C1C(=O)C2(C)OC2(C)C1C(=O)O,H37Rv,-,inhibition,BACTEC,-,-,12.5 µg/mL,-2%
CC1(C)S[C@@H]2[C@H](NC(=O)[C@H](N)c3ccc(O)cc3)C(=O)N2[C@H]1C(=O)O,Isolate 3,-,MIC,-,-,-,-,>16 µg/mL
NC[C@H]1O[C@H](O[C@H]2[C@H](O)[C@@H](O[C@H]3O[C@H](CO)[C@@H](O)[C@H](N)[C@H]3O)[C@H](N)C[C@@H]2N)[C@H](O)[C@@H](O)[C@@H]1O,TN758 (P),-,MIC,-,-,-,-,4 µg/mL
O=C(Nc1ncc([N+](=O)[O-])s1)c1cccnc1,H37Rv,-,MIC,BACTEC,-,-,-,≥12.5 µg/mL
CCCCOc1ccc2nccc(NN)c2c1,H37Rv,inside macrophages,MIC,-,-,-,-,0.78 µg/mL
COCCN1CCN(c2cc(=O)c3nc4c(oc3c2)c2c(=O)c3c(O)c(C)c5c(c34)=C(O)[C@@](C)(O/C=C/[C@H](OC)[C@@H](C)[C@@H](OC(C)=O)[C@H](C)[C@H](O)[C@H](C)[C@@H](O)[C@@H](C)/C=C/C=C(/C)C(=O)N2)O5)CC1,H37Rv,-,MIC,-,-,-,-,0.035 µg/mL
Cc1ccn2c(C(=O)NCc3ccc(Oc4cccc(C(F)(F)F)c4)cc3)c(C)nc2c1,H37Rv,-,MIC90,resazurin,-,-,-,<2 µM
C[C@H]1COc2c(N3CCc4ccccc4C3C(=O)NC(C)(C)C)c(F)cc3c(=O)c(C(=O)O)cn1c23,-,-,MIC99,agar,-,-,-,3.16 µM
Cc1ccn2c(C(=O)NCc3ccc(NCCOCCN)c(F)c3)c(C)nc2c1,H37Rv,-,MIC90,resazurin,-,-,-,>32 µM
Cc1ccc(Nc2cc(Cl)nc(N)n2)cc1Cl,H37Rv,-,MIC,-,-,-,-,>12.5 µg/mL
Cc1cc(C)c2c(=O)n(CC(O)CN3CCN(CCO)CC3)sc2n1,H37Rv,-,EC50,-,-,-,-,>12.5 µg/mL
CCCN1CCN(c2cc(=O)c3nc4c(oc3c2)c2c(=O)c3c(O)c(C)c5c(c34)=C(O)[C@@](C)(O/C=C/[C@H](OC)[C@@H](C)[C@@H](OC(C)=O)[C@H](C)[C@H](O)[C@H](C)[C@@H](O)[C@@H](C)/C=C/C=C(/C)C(=O)N2)O5)CC1,6 strains (rifampicin-resistant),-,MIC50,-,-,-,-,≤0.0125 µg/mL
CC1=C[C@@]23[C@H](C=C(C(=O)O)[C@@H]2COC(=O)[C@]32CO2)[C@H]1C,H37Rv,-,MIC,BACTEC,-,-,-,≥12.8 µg/mL
CCCCN1[C@@H](c2ccccc2)CC2(C[C@H]1c1ccccc1)N=c1c(c3c4c5c(C)c(O)c3c(O)c1=NC(=O)/C(C)=C\C=C\[C@H](C)[C@H](O)[C@@H](C)[C@H](O)[C@H](C)[C@H](OC(C)=O)[C@H](C)[C@@H](OC)/C=C/O[C@@](C)(O5)C4=O)N2,ATCC 35822 (isoniazid-resistant),-,MIC,-,-,-,-,0.02 µg/mL
C/C=C1\Oc2ccc(OC)cc2S1(=O)=O,H37Rv,-,MIC bound,BACTEC,-,-,-,>12.5 µg/mL
Cc1ccc2nc(C(F)(F)F)c(C(=O)NCc3ccc4c(c3)CCO4)n2c1,H37Rv,-,MIC90,resazurin,-,-,-,<2 µM
CC[C@H]1OC(=O)[C@H](C)[C@@H](O[C@H]2C[C@@](C)(OC)[C@@H](O)[C@H](C)O2)[C@H](C)[C@@H](O[C@@H]2O[C@H](C)C[C@H](N(C)C)[C@H]2O)[C@](C)(OC)C[C@@H](C)C(=O)[C@H](C)[C@@H](O)[C@]1(C)O,18 strains (levofloxacin-resistant),-,MIC50,-,-,-,-,6.25 µg/mL
O=[n+]1c2ccccc2n([O-])c2ccccc21,CS-R,-,MIC,-,-,-,-,1.6 µg/mL
COc1c(N2CCNC(C)C2)c(F)cc2c(=O)c(C(=O)O)cn(C3CC3)c12,27 strains (levofloxacin-susceptible),-,MIC90,-,-,-,-,0.2 µg/mL
CCN1CCCc2cc3c(C(F)(F)F)cc(=O)oc3cc21,H37Rv,-,inhibition,BACTEC,-,-,12.5 µg/mL,84%
O=C(O)[C@H]1/C(=C/CO)O[C@@H]2CC(=O)N21,Isolate 4,-,MIC,-,-,-,-,>16 µg/mL
CC(=O)OCc1cc(=O)n(C)c2c3c4c(cc12)c(C)cc(=O)n4CO3,TAC-R,-,MIC,-,-,-,-,1.6 µg/mL
COc1ccc(C(=O)Nc2ccc(C(=O)N/N=C/c3ccc(Br)cc3)cc2)cc1,H37Rv,-,MIC,-,-,-,-,>6.25 µg/mL
NNC(=O)c1ccncc1,PMH29:kasA/kasB,-,MIC,-,-,-,-,0.125 µg/mL
CC(C)CCCC(C)C1CCC2C3CCC4OC(=O)CCC4(C)C3CCC12C,H37Rv,-,inhibition,BACTEC,-,-,12.5 µg/mL,65%
NNc1ccnc2ccc(C3CCCCC3)cc12,H37Rv,-,MIC,-,VERO,-,-,6.25 µg/mL
CC(NNC(=O)c1cc[n+]([B]C#N)cc1)C(F)(F)F,-,-,inhibition,BACTEC,-,-,0.5 µM,0%
CCC(C)N1CCN(c2cc(=O)c3nc4c(oc3c2)c2c(=O)c3c(O)c(C)c5c(c34)=C(O)[C@@](C)(O/C=C/[C@H](OC)[C@@H](C)[C@@H](OC(C)=O)[C@H](C)[C@H](O)[C@H](C)[C@@H](O)[C@@H](C)/C=C/C=C(/C)C(=O)N2)O5)CC1,6 strains (rifampicin-resistant),-,MIC50,-,-,-,-,≤0.0125 µg/mL
C[C@H]1COc2c(N3CCC4(CC3)OCCO4)c(F)cc3c(=O)c(C(=O)O)cn1c23,-,-,MIC99,agar,-,-,-,0.47 µM
NC(CCCCNC(=S)S)C(=O)O,H37Rv,-,MIC,BACTEC,-,-,-,≥128 µg/mL
CCOc1ccc2ccccc2c1C(=O)N[C@@H]1C(=O)N2[C@@H]1SC(C)(C)[C@@H]2C(=O)O,H37Rv,-,MIC,-,-,-,-,>16 µg/mL
Cc1ccc(S(=O)(=O)C23N=NC(C)(C)C2N=NC3(C)C)cc1,H37Rv,-,MIC,BACTEC,-,-,-,≥128 µg/mL
CCN1CCN(c2cc(=O)c3nc4c(oc3c2)c2c(=O)c3c(O)c(C)c5c(c34)=C(O)[C@@](C)(O/C=C/[C@H](OC)[C@@H](C)[C@@H](OC(C)=O)[C@H](C)[C@H](O)[C@H](C)[C@@H](O)[C@@H](C)/C=C/C=C(/C)C(=O)N2)O5)CC1,H37Rv,-,MIC,-,-,-,-,0.002 µg/mL
C=CCN1C(=O)CS/C1=N\NC(=O)c1ccc(NC(=O)c2ccc(OC)cc2)cc1,H37Rv,-,inhibition,-,-,-,6.25 µg/mL,0%